Test system: unidentified influenza virus
Test: Antiviral activity against recombinant influenza virus WSN harboring PB1 456H codon infected in MDCK cells assessed as reduction in cytopathic effect by fluorescence based analysis
Settings: strain WSN

With COCCCn1c2c(c(SCc3ccc(Cl)cc3)nc1=O)CCC2 as the compound, how does the IC50 read?
Its IC50 is 0.3 µM.
